Measurements from paper PMC2757719.
For some assays here: The exact form of at least one protein or probe is not confirmed. For some assays here: At least one verdict rests on a figure or table, not on a statement of the authors.

How the values were obtained:
[1] = tested on: EBNA1 395-641 + USP7-NTD (TRAF domain); experiment: EMSA; settings: excess USP7-NTD (10 pmol), slower migration; 20 mM Tris pH 7.5, 200 mM NaCl, 1 ug salmon sperm DNA, 10 fmol probe, 20 ul, room temperature 10 min; 10% polyacrylamide gel; recombinant protein; protein details: N-terminal His6; label: 32P 5' end label
[2] = target: EBNA1 452-641 (Epstein-Barr virus) (UniProt P03211); experiment: EMSA; settings: no USP7; 20 mM Tris pH 7.5, 200 mM NaCl, 1 ug salmon sperm DNA, 10 fmol probe, 20 ul, room temperature 10 min; 10% polyacrylamide gel; recombinant protein; residues 452-641; label: 32P 5' end label

## CGGGAAGCATATGCTACCCG (double strand) [DS site 1 20-mer]
[1]
  binding result: binds
[2]
  binding result: binds
